Drawing on paper PMC4833353 (PLoS Pathogens, 2016), this text covers stoichiometry N for one substance.

For this assay, the target named is classical cholera toxin B-pentamer (Vibrio cholerae (classical biotype)).

Substance classical cholera toxin B-pentamer showed a stoichiometry N of 5.
